Test results published in article PMC11273436 (Antibiotics, 2024).

Test system: H1N1 virus
Parameters: species or system C57BL/6J mice
Conditions: mouse, in vivo

NC(=O)c1ncn([C@@H]2O[C@H](CO)[C@@H](O)[C@H]2O)n1 [RV, ribavirin, reference compound]
infectious viral titers in pulmonary tissue: significant reduction in the viral burden
